Values quoted from earlier work, collected in PMC11768359, “2-Aminothiophene Derivatives—New Drug Candidates Against Leishmaniasis: Drug Design, Synthesis, Pharmacomodulation, and Antileishmanial Activity” (Pharmaceuticals, 2025).
Which two values form the index is not stated here.

tested on: promastigotes of L. amazonensis; settings: cited from earlier work

First: CC(C)(C)OC(=O)N1CCc2c(sc(N)c2C(N)=O)C1 [Compound 19]
Second: N#Cc1c(/N=C/c2c[nH]c3cccc(Br)c23)sc2c1CCCCCC2 [Compound 42, reference compound]
The “selectivity index (SI)” value of the first is lower: 52 for the first, 75 for the second.

In the case of “Meglumine antimoniate [reference compound]”, the “selectivity index (SI)” value is listed as 1.01.
